Results taken from PMC3516549, “Influenza Human Monoclonal Antibody 1F1 Interacts with Three Major Antigenic Sites and Residues Mediating Human Receptor Specificity in H1N1 Viruses” (2012).

Target: SC1918 HA (baculovirus-expressed, for crystallization) (influenza A virus A/South Carolina/1/18 (H1N1)) (UniProt Q9WFX3)
Assay: crystal structure

1F1 Fab
stoichiometry N (Fabs per HA trimer): 3
